Anti-infective test results gathered from many reports (values: NIAID ChemDB through PubChem).

Shared fields: whole-cell or culture tests; organism: HIV-1; method: cytopathic effect / XTT; read-out: EC50

a–b is a range or a potency band.

Nc1ccn([C@H]2CC[C@@H](CO)O2)c(=O)n1 ; strain or isolate: IIIB ; cells: CEM ; result: <0.03 µg/mL
O=C(Nc1ccc2c(O)c(N=Nc3ccc(C(=O)O)cc3)c(S(=O)(=O)O)cc2c1)Nc1ccc2c(O)c(N=Nc3ccc(C(=O)O)cc3)c(S(=O)(=O)O)cc2c1 ; strain or isolate: RF ; cells: CEM + CEM-SS ; result: 8.8 µM
Cc1occc1C(=S)Nc1ccc(Cl)c(/C=N/OC(C)(C)C)c1 ; strain or isolate: NL4-3 ; cells: CEM + CEM-SS ; result: 0.08 µM
CC1=C(CCC(=O)O)c2cc3nc(cc4[nH]c(cc5[nH]c(cc1n2)c(CCC(=O)O)c5CC(=O)O)c(CCC(=O)O)c4C)C(CCC(=O)O)=C3C ; strain or isolate: IIIB ; cells: MT-2 ; result: 37.5 µg/mL
Cc1cc(C)nc(NS(=O)(=O)c2ccc(N=C3C(=O)N(CN4CCN(c5cc6c(cc5F)c(=O)c(C(=O)O)cn6C)CC4C)c4ccccc43)cc2)n1 ; strain or isolate: IIIB ; cells: CEM ; result: >116 µM
Nc1nc2c(ncn2[C@H]2C=C[C@@H](CO)C2)c(=O)[nH]1 ; strain or isolate: RF ; cells: CEM ; result: 0.66 µg/mL
CCc1cn([C@H]2C=C[C@@H](OCP(=O)(O)O)O2)c(=O)[nH]c1=O ; strain or isolate: IIIB ; cells: CEM ; result: >100 µg/mL
Cc1cc(C)cc(C(=O)c2c(C(C)C)c(=O)[nH]c(=O)n2CC2=CCCC2)c1 ; cells: CEM + CEM-SS ; result: 0.02 µM
CN(C)C1=C(C#N)/C(=C2/C(C#N)=C(N(C)C)N(c3ccc([N+](=O)[O-])cc3)c3c2n(C)c2ccccc32)c2c(c3ccccc3n2C)N1c1ccc([N+](=O)[O-])cc1 ; strain or isolate: IIIB ; cells: CEM + CEM-SS ; result: 0.824–0.836 µM
C=Cc1cn([C@H]2C=C[C@@H](OCP(=O)(O)O)O2)c(=O)[nH]c1=O ; strain or isolate: IIIB ; cells: CEM ; result: >100 µg/mL
Nc1nc(N)c2ncn([C@H]3C=C[C@@H](CO)C3)c2n1 ; strain or isolate: IIIB ; cells: MT-2 ; result: 2.9 µg/mL
COc1c(N2CCN(CN3C(=O)C(=Nc4ccc(S(=O)(=O)Nc5nc(C)cc(C)n5)cc4)c4cc(F)ccc43)C(C)C2)c(F)cc2c(=O)c(C(=O)O)cn(C3CC3)c12 ; strain or isolate: IIIB ; cells: CEM ; result: >135 µM
CC(=O)O[C@@H]1[C@@H](O)[C@H](COC(=O)/C=C/c2ccc(O)cc2)OC(Oc2ccc(C(=O)/C=C/c3ccc(O)c(O)c3)c(O)c2O)[C@H]1O ; strain or isolate: MN ; cells: C8166 ; result: 10 µM
Cc1ccsc1C(=S)Nc1ccc(Cl)c(/C=N/OC(C)C)c1 ; strain or isolate: IIIB ; cells: CEM + CEM-SS ; result: 0.07 µM
COc1c(N2CCN(CN3C(=O)C(=Nc4ccc(S(=O)(=O)Nc5nc(C)cc(C)n5)cc4)c4ccccc43)C(C)C2)c(F)cc2c(=O)c(C(=O)O)cn(C3CC3)c12 ; strain or isolate: IIIB ; cells: CEM ; result: >133 µM
CC(=O)c1ccc(C)cc1NC(C(N)=O)c1c(Cl)cccc1Cl ; mutations: RT-Y181C ; strain or isolate: UC82-R (RT-Y181C) ; cells: CEM + CEM-SS ; result: >1 µM
COc1nc(N)c(N=C[C@@H](O)[C@@H](O)[C@H](O)CO)c(=O)n1C ; cells: CEM ; result: 64 µM
CC(=O)COc1cc(NC(=S)OC(C)C)ccc1Cl ; strain or isolate: IIIB ; cells: CEM + CEM-SS ; result: 0.5 µM
CC(C)=CCOc1cc(NC(=S)c2ccoc2C)ccc1Cl ; strain or isolate: SK1 ; cells: CEM + CEM-SS ; result: 0.006 µM
O=C(O)CCC1=C(CC(=O)O)c2cc3nc(cc4[nH]c(cc5[nH]c(cc1n2)c(CC(=O)O)c5CCC(=O)O)c(CC(=O)O)c4CCC(=O)O)C(CC(=O)O)=C3CCC(=O)O ; strain or isolate: IIIB ; cells: MT-2 ; result: 9.8 µg/mL
N#Cc1cc2c(cc1Cl)Sc1nccn1S2(=O)=O ; cells: CEM ; result: >200 µM
Cc1occc1C(=S)Nc1ccc(Cl)c(C(=O)OCC2CC2)c1 ; mutations: RT-A98G ; strain or isolate: NL4-3 ; cells: CEM + CEM-SS ; result: 0.1 µM
Cc1cc2c(cc1Cl)Sc1ncc(C)n1S2(=O)=O ; cells: CEM ; result: 0.94 µM
CCCCCCCCCCCCCCCCOP(=O)(O)OCCC=C(c1cc(Cl)c(O)c(C(=O)O)c1)c1cc(Cl)c(O)c(C(=O)O)c1 ; strain or isolate: RF ; cells: CEM + CEM-SS ; result: >84 µM
C=Cc1c(C)c2cc3[nH]c(cc4nc(cc5nc(cc1[nH]2)C(C)=C5CCC(=O)O)C(CCC(=O)O)=C4C)c(C)c3C(C)O ; strain or isolate: IIIB ; cells: MT-2 ; result: 3.1 µg/mL
Cc1cc(S(=O)(=O)Nc2nnc3cc(C(F)(F)F)cc(C)n23)c(S)cc1Cl ; strain or isolate: RF ; cells: CEM ; result: 39.1 µM
O=c1[nH]c(=O)n([C@H]2C=C[C@@H](OCP(=O)(O)O)O2)cc1Cl ; strain or isolate: IIIB ; cells: MT-2 ; result: 13–27 µg/mL
C=CCO/N=C/c1cc(NC(=S)c2ccoc2C)ccc1Cl ; mutations: RT-D67N K70R T215Y K219Q ; strain or isolate: 4xAZT(RT-D67N K70R T215Y K219Q) ; cells: CEM + CEM-SS ; result: 0.03 µM
Cc1cc(S(=O)(=O)Nc2nnc3ccccn23)c(S)cc1Cl ; strain or isolate: RF ; cells: CEM ; result: 133 µM
Cc1ccnc2c1N(C(=O)CNC(=O)c1cnccn1)C(=O)c1cccnc1N2C1CC1 ; cells: CEM ; result: <0.0636 µM
O=S(=O)(O)c1ccc(-c2c3nc(c(-c4ccc(S(=O)(=O)O)cc4)c4ccc([nH]4)c(-c4ccc(S(=O)(=O)O)cc4)c4nc(c(-c5ccc(S(=O)(=O)O)cc5)c5ccc2[nH]5)C=C4)C=C3)cc1 ; strain or isolate: IIIB ; cells: MT-2 ; result: 2.2 µg/mL
Cc1ccnc2c1N(C(=O)CNNC(=O)c1ccncc1)C(=O)c1cccnc1N2C1CC1 ; cells: CEM ; result: <0.0636 µM
CC(C)=CCOc1cc(NC(=S)c2ccsc2C)ccc1Cl ; mutations: RT-Y181C ; strain or isolate: UC781-R (RT-Y181C) ; cells: CEM + CEM-SS ; result: 0.3 µM
CCn1cc(C(=O)O)c(=O)c2cc(F)c(N3CCN(CN4C(=O)C(=Nc5ccc(S(=O)(=O)Nc6nc(C)cc(C)n6)cc5)c5cc(F)ccc54)CC3)cc21 ; strain or isolate: IIIB ; cells: CEM ; result: >117 µM
CC=CCOc1cc(NC(=S)c2ccoc2C)ccc1OC ; mutations: RT-L74V ; strain or isolate: NL4-3 ; cells: CEM + CEM-SS ; result: 0.03 µM
C=CC1=C(C)C2=NC1=CC1=NC(=C(CC)/C1=C\[O-])C=c1[n-]c3c(c1C)C(=O)[C@H](C(=O)OC)C=3C1=NC(=C2)[C@@H](C)[C@@H]1CCC(=O)OC/C=C(\C)CCCC(C)CCCC(C)CCCC(C)C.[Mg+2] ; strain or isolate: IIIB ; cells: MT-2 ; result: >80 µg/mL

ECn: concentration that inhibits the pathogen or its effect by n%. Neighbouring rows are from separate reports.